These are literature values, as cited in PubChem BioAssay AID1811.

Common to all, as to experiment: PubChem AID 1811
In one series the target is heat-labile enterotoxin. The note with it: PDB complex binding affinities from literature; IC50 when reported.
For another series, the target named is glutamine synthetase. Conditions: PDB complex binding affinities from literature; Ki when reported.
For series [1], the target named is heat-labile enterotoxin b chain. The note with it: PDB complex binding affinities from literature; IC50 when reported.

SMILES strings stand for the structures. pIC50, pKi: −log10 of the molar value.

As to `OC[C@H]1O[C@@H](S[C@@H]2O[C@H](CO)[C@H](O)[C@H](O)[C@H]2O)[C@H](O)[C@@H](O)[C@H]1O`, the pIC50 (commonly the negative decadic logarithm of the IC50, by convention in mol/L) on heat-labile enterotoxin was 2.70.

`CP(=O)(O)CC[C@H](N)C(=O)O`: the pKi (usually the negative decadic logarithm of the Ki, by convention in mol/L) at glutamine synthetase was 6.00.

In the case of `Nc1ccc(O[C@H]2O[C@H](CO)[C@H](O)[C@H](O)[C@H]2O)cc1`, the pIC50 in series [1] was 1.92.
